A mixed list of measured activities; the numbers were collected in NIAID ChemDB.

Shared fields: tests in culture; agent: Influenza A virus; method: plaque count; read-out: EC50

ECn: concentration that inhibits the pathogen or its effect by n%. Blank or dashed fields: not listed here. Two numbers with a dash give a range or band. Neighbouring rows are from separate reports.

structure,strain,cell line,value
NC(=O)c1nc(F)c[nH]c1=O,H1N1 A/PR/8/34,MDCK,<1 µg/mL
CCC1=C(CC)C2CCCC1C2N,,MDCK,>100 µM
CC#Cc1cn([C@@H]2O[C@H](COP(=O)(O)OCC(Cl)(Cl)Cl)[C@@H](O)[C@@H]2O)c(=O)[nH]c1=O,H1N1 A/Sweden/3/50,MDCK,>100 µM
CC1=C(C)C2(C)CC[C@@H](C(C)C)C1C2N,,MDCK,>20 µM
Nc1nc2c(ncn2[C@@H]2C[C@H](CO)[C@H]2CO)c(=O)[nH]1,WSN,MDCK,>377 µM
N#Cc1cc(C#N)c2[nH]c3ccccc3n2c1=O,Influenza A/Ishikawa/7/82 (H3N2),MDCK,40 µg/mL
Cc1ccc(O)c(C(=O)NCCCN2[C@H](C)CC[C@@H]3CCCC[C@@H]32)c1,H1N1 A/WSN/33 (H1N1),MDCK,>50 µg/mL
CC(=O)c1cc(NC(=O)c2ccccc2)c(=O)n2c1[nH]c1ccccc12,Influenza A/Ishikawa/7/82 (H3N2),MDCK,>40 µg/mL
Nc1nc2c(ncn2[C@@H]2O[C@H](CO)[C@@H](O)[C@H]2F)c(=O)[nH]1,A/NWS/33/H1N1,MDCK,20 µM
N#Cc1cc(NC(=O)c2ccccc2)c(=O)n2c1[nH]c1ccccc12,A/Bangkok,MDCK,2 µg/mL
CCC(C)N1C2CCC23CC[C@H](NC(=O)c2cc(Cl)ccc2O)CC13,H1N1 A/WSN/33 (H1N1),MDCK,>50 µg/mL
O=C(NC1CC1)c1cc2c(s1)-c1ccccc1N(C(=O)c1ccc(NC(=O)c3ccccc3-c3ccccc3)cc1)CC2,Influenza A/Ishikawa/7/82 (H3N2),HeLa,>100 µM
CCCN(CCC)C(=O)O[C@@H]([C@@H]1OC(C(=O)O)=C[C@H](N)[C@H]1NC(=O)O)[C@H](C)CO,H3N2 AICHI,MDCK,2.95 µg/mL
C/C=C\[C@@H]1C[C@H](C(=O)O)N[C@H]1[C@@H](NC(C)=O)[C@](C)(CCC)OC,H1N1 isolate C9D,MDCK,0.15 µg/mL
CC#Cc1cn([C@@H]2O[C@H](COP(=O)(O)Oc3ccc(OC)cc3)[C@@H](O)[C@@H]2O)c(=O)[nH]c1=O,H1N1 A/Sweden/3/50,MDCK,>100 µM
CCOC(=O)c1cc(C(=O)O)c(=O)n2c1[nH]c1ccccc12,Influenza A/Ishikawa/7/82 (H3N2),MDCK,40 µg/mL
CCC(CC)O[C@@H]1C=C(C(=O)O)C[C@H](N)[C@H]1NC(C)=O,Influenza A/Victoria/3/75 (H3N2),MDCK,0.0006 µM
CC1=C(C)C2(C)C(N)C1[C@H](C(C)C)C[C@H]2C,,MDCK,12 µM
Nc1ncc(N)c(NCC2(CO)CC(Cc3ccccc3)C2)n1,H1N1 A/PR/8/34,MDCK,5.7–18 µM
CC[C@@H]1C2CCCC(C2N)[C@@H]1CC,,MDCK,>100 µM
Nc1nc(Cl)cc(NCC2(CO)CC(CCc3ccccc3)C2)n1,H1N1 A/PR/8/34,MDCK,0.29–1.2 µM
N#Cc1cc(CC(=O)c2ccccc2)c(=O)n2c1sc1ccccc12,Influenza A/Ishikawa/7/82 (H3N2),MDCK,>40 µg/mL
CC#Cc1cn([C@@H]2O[C@H](COP(=O)(O)Oc3ccc(F)cc3)[C@@H](O)[C@@H]2O)c(=O)[nH]c1=O,H1N1 A/Sweden/3/50,MDCK,>100 µM
Cc1ccc(O)c(C(=O)NCCN2CCC(C)[C@@H]3CCCC[C@@H]32)c1,H1N1 A/WSN/33 (H1N1),MDCK,>50 µg/mL
CC(C)Oc1ccccc1NC(=O)Nc1ccc2cnccc2n1,,,>32 µg/mL
N#CNc1nncs1,A/Brazil/11/78,MDCK,0.7 µg/mL
CCOC(=O)c1cc(C#N)c2[nH]c3ccccc3n2c1=O,A/Bangkok,MDCK,200 µg/mL
CCCCCCCNC(=O)O[C@@H]([C@@H]1OC(C(=O)O)=C[C@H](N=C(N)N)[C@H]1NC(=O)O)[C@H](C)CO,H3N2 AICHI,MDCK,0.05 µg/mL
CC1=C(C)C2C(N)C1[C@H](C(C)C)C[C@@H]2C,,MDCK,92 µM
CCCNC(=O)O[C@@H]([C@@H]1OC(C(=O)O)=C[C@H](N)[C@H]1NC(=O)O)[C@H](C)CO,H3N2 AICHI,MDCK,1.25 µg/mL
Nc1nc(Cl)cc(NCC2(CO)CC2)n1,H1N1 A/PR/8/34,MDCK,>440 µM
C[C@@H]1C2CCCC(C2N)[C@@H]1c1ccccc1,,MDCK,>25 µM
CC#Cc1cn([C@@H]2O[C@H](COP(=O)(Oc3ccccc3)Oc3ccc([N+](=O)[O-])cc3)[C@@H](O)[C@@H]2O)c(=O)[nH]c1=O,H1N1 A/Sweden/3/50,MDCK,2.3 µM
C[C@H](CO)[C@@H](OC(=O)NCCCCNCCN)[C@@H]1OC(C(=O)O)=C[C@H](N=C(N)N)[C@H]1NC(=O)O,H3N2 AICHI,MDCK,0.019 µg/mL
CCC(C)N1C2CCC23CC[C@@H](NC(=O)c2cc(C)ccc2O)CC13,H1N1 A/WSN/33 (H1N1),MDCK,>50 µg/mL
Cc1ccc(C2NC(=O)C3NC(=O)C(c4cc(O)cc(O)c4)NC(=O)C(NC(=O)C(N)Cc4ccc(O)cc4)Cc4c[nH]c5cc(ccc45)-c4cc3cc(c4O)Oc3ccc(cc3)CC(C(=O)NC(C(=O)O)c3ccc(O)c(O)c3)NC2=O)cc1Cl,A/Victoria,MDCK,66 µg/mL
Cc1ccc(O)c(C(=O)NC2CCNCC2)c1,H1N1 A/WSN/33 (H1N1),MDCK,>50 µg/mL
CC1=C(C)C2CCCC1C2N,,MDCK,12.5 µM
C[C@@H]1CCC[C@H](C)N1CCNC(=O)c1cc(Cl)ccc1O,H1N1 A/WSN/33 (H1N1),MDCK,4.5 µg/mL
CC#Cc1cn([C@@H]2O[C@H](COP(=O)(O)Oc3ccccc3Cl)[C@@H](O)[C@@H]2O)c(=O)[nH]c1=O,H1N1 A/Sweden/3/50,MDCK,>100 µM

Again, the opening 3 rows:

structure,strain,cell line,value
NC(=O)c1nc(F)c[nH]c1=O,H1N1 A/PR/8/34,MDCK,<1 µg/mL
CCC1=C(CC)C2CCCC1C2N,,MDCK,>100 µM
CC#Cc1cn([C@@H]2O[C@H](COP(=O)(O)OCC(Cl)(Cl)Cl)[C@@H](O)[C@@H]2O)c(=O)[nH]c1=O,H1N1 A/Sweden/3/50,MDCK,>100 µM